Compound potency records, mixed from different reports. Data source: NIAID ChemDB in PubChem.

Shared fields: whole-cell or culture tests; organism: HIV-1; cells: MT-4; endpoint: EC50

ECn is the concentration giving n% inhibition of infection, replication or growth. Blank or dashed fields: not listed here. Conditions beyond the fields shown may differ between rows.

smiles,strain,mutations,method,result
Cc1cn([C@H]2C=C[C@@H](CO)O2)c(=O)[nH]c1=O,LAV,-,trypan blue,0.01 µM
Nc1ncnc2c1ncn2CCOCP(=O)(O)O,IIIB,-,cytopathic effect / trypan blue,7 µM
O=C(O)/C(O)=C(\Cc1ccccc1)c1cc(CCc2ccccc2)ncn1,IIIB,-,cytopathic effect / MTT,>55 µM
CC(=O)Nc1cccc2c1nc(-c1c(F)cccc1F)n2Cc1c(F)cccc1F,-,RT-V108I,cytopathic effect / MTT,2.82 µM
Cc1cn([C@@H]2C=C[C@H](COC(=O)NCCCCNC(=O)OC[C@H]3O[C@@H](n4cc(C)c(=O)[nH]c4=O)C[C@@H]3N=[N+]=[N-])O2)c(=O)[nH]c1=O,IIIB,-,cytopathic effect / MTT,96.3 µM
Cc1cn([C@H]2C[C@H](N=[N+]=[N-])[C@@H](CO)O2)c(=O)[nH]c1=O,LAV,-,trypan blue,0.006 µM
CCc1cccc2c1nc(-c1c(F)cccc1F)n2Cc1c(F)cccc1F,-,RT-K101E,cytopathic effect / MTT,2.82 µM
C[C@H](Cn1cnc2c(N)nc(N)nc21)OCP(=O)(O)O,IIIB,-,cytopathic effect / trypan blue,0.59 µM
CC(C)c1c(Sc2cccc3ccccc23)n(COCc2ccccc2)c(=O)[nH]c1=O,IIIB,-,cytopathic effect / MTT,0.063 µM
O=S(=O)(O)c1cc(O)c2c(NS(=O)(=O)c3ccc(-c4ccc(S(=O)(=O)Nc5cc(S(=O)(=O)O)cc6cc(S(=O)(=O)O)cc(O)c56)cc4)cc3)cc(S(=O)(=O)O)cc2c1,IIIB,-,cytopathic effect / MTT,8.3 µM
Cc1cc(Br)cc(S(=O)(=O)c2cccc(N)c2C#N)c1,IIIB,-,cytopathic effect,0.01 µM
CC(C)(CO)[C@@H](O)C(=O)NCCC(=O)NCCSSCCNC(=O)CCNC(=O)[C@H](O)C(C)(C)CO,LAV,-,-,>10 µg/mL
O=C(/C=C/c1ccc(O)cc1)/C=C/c1ccc(O)cc1,-,-,cytopathic effect / MTT,>1.6 µM
N#Cc1c(N)cccc1Sc1cc(Cl)cc(Cl)c1,IIIB,-,cytopathic effect,<5 µM
Cc1cn([C@H]2C[C@H](N=[N+]=[N-])[C@@H](CO)O2)c(=O)[nH]c1=O,-,-,-,0.0009 µg/mL
Cc1cn([C@H]2C[C@H](N=[N+]=[N-])[C@@H](CO)O2)c(=O)[nH]c1=O,IIIB,-,cytopathic effect,0.018 µM
OCCN1CCN(CCCN2c3ccccc3Sc3ccc(Cl)cc32)CC1,LAV,-,-,>1 µg/mL
Nc1ncnc2c1ncn2[C@H]1C=C[C@@H](CO)O1,LAV,-,trypan blue,>125 µM
COc1cc(C)cc(S(=O)(=O)c2cccc(N)c2C#N)c1,IIIB,-,cytopathic effect,0.03 µM
CN(C)c1cccc2c1nc(-c1c(F)cccc1F)n2Cc1c(F)cccc1F,-,RT-M184I,cytopathic effect / MTT,0.16 µM
O=C(/C=C/c1ccc(O)c(O)c1)CCc1ccccc1,-,-,cytopathic effect / MTT,>15 µM
Cc1cc2c(C(C)C)c(O)c(O)c3c(O)oc(/c1=c1/c(C)cc4c(C(C)C)c(=O)c(=O)c5c(O)oc1c45)c23,LAV-A,-,antigen,63 µM
O=C1C(=Cc2ccc(O)c(O)c2)C(=O)c2ccccc21,-,-,cytopathic effect / MTT,>32 µM
CCCCCCCC(=O)O[C@]12C(C3C(OO)C(CO)=C[C@]4(O)C(=O)C(C)=CC4[C@@]3(O)[C@H](C)[C@H]1OC(=O)c1ccccc1)C2(C)C,NL4-3,-,p24 / ELISA,<0.005 µM
CN=C1C[N+](O)=C(c2ccccc2)c2cc(Cl)ccc2N1,LAV,-,-,>100 µg/mL
NCCCCN(Cc1nc2ccccc2[nH]1)C1CCCc2cccnc21,NL4-3,-,MTT,0.026 µM
Cc1ccnc2c1NC(=O)c1cccnc1N2C1CC1,IIIB,-,MTT,0.072 µM
O=C(O)c1cc2cc(O)c(O)cc2[nH]1,IIIB,-,MTT,12 µM
O=C1/C(=C/c2ccc(O)c(O)c2)CNC/C1=C\c1ccc(O)c(O)c1,-,-,cytopathic effect / MTT,>21 µM
Cc1cn([C@@H]2C[C@@H](N=[N+]=[N-])[C@H](COC(=O)OC[C@H]3O[C@@H](n4cc(C)c(=O)[nH]c4=O)C[C@@H]3N=[N+]=[N-])O2)c(=O)[nH]c1=O,IIIB,-,cytopathic effect / MTT,0.0028 µM
COCCOCn1c(Sc2cccc3ccccc23)c(C(C)C)c(=O)[nH]c1=O,IIIB,-,cytopathic effect / MTT,0.65 µM
Nc1ncnc2c1ncn2[C@H]1CC[C@@H](CO)O1,LAV,-,trypan blue,6.4 µM
NC12CC3CC(CC(C3)C1)C2,LAV,-,-,<10 µg/mL
CCOCn1c(Cc2ccccc2)c(C(C)C)c(=O)[nH]c1=O,IIIB,-,cytopathic effect / MTT,0.03 µM
C=COC(=O)OC[C@@H]1C=C[C@H](n2cc(C)c(=O)[nH]c2=O)O1,IIIB,-,cytopathic effect / MTT,0.085 µM
CCN(c1ncccc1NC(C)(C)C)C1CCN(C(=O)c2cc3cc(NS(C)(=O)=O)ccc3[nH]2)CC1,IIIB,-,p24,<0.004 µM
Cc1cc2c(cc1S(N)(=O)=O)S(=O)(=O)CCC2,LAV,-,-,>100 µg/mL
O=C(NCCCCCCNC(=O)c1cc2cc(O)c(O)cc2[nH]1)c1cc2cc(O)c(O)cc2[nH]1,IIIB,-,fluorescence,>171 µM
CC(C)c1c(Sc2cccc3ccccc23)n(COCc2ccc(F)cc2)c(=O)[nH]c1=O,IIIB,-,cytopathic effect / MTT,0.067 µM
CC(C)OP(=O)(COCC1(Cn2cnc3c(N)ncnc32)CC=CC1)OC(C)C,-,-,-,>100 µg/mL
Cc1cn([C@H]2C[C@H](N=[N+]=[N-])[C@@H](CO)O2)c(=O)[nH]c1=O,HXB2-D50(RT-I50T),RT-I50T,p24,0.02 µM
NC(=O)c1[nH]c2ccc(Cl)cc2c1S(=O)(=O)c1ccccc1,IIIB,-,MTT,0.002 µM
CCN1CCCC(OC(=O)C(c2ccccc2)c2ccccc2)C1,LAV,-,-,>100 µg/mL
N#Cc1c(N)cccc1S(=O)c1ccc(Br)cc1,IIIB,-,cytopathic effect,2.21 µM
CO[P@](=O)(c1cc(C)cc(/C=C/C#N)c1)c1c(C(N)=O)[nH]c2ccc(Cl)cc12,IIIB,-,-,0.0005 µM
CC(C)(C)NC(=O)[C@@H]1C[C@@H]2CCCC[C@@H]2CN1C[C@@H](O)[C@H](Cc1ccccc1)NC(=O)[C@H](CC(N)=O)NC(=O)c1ccc2ccccc2n1,NL4-3-P28 (PR M46I I84V),PR-M46I I84V,p24,<0.16 µM
N#Cc1c(N)cccc1S(=O)(=O)c1cc(Cl)ccc1Cl,IIIB,-,cytopathic effect,3.5 µM
CC(C)=CCN1Cc2cc(Cl)cc3[nH]c(=S)n(c23)C[C@@H]1C,-,-,-,<0.8 µM
CCc1c(Sc2cccc3ccccc23)n(COCc2ccc(F)cc2)c(=O)[nH]c1=O,IIIB,-,cytopathic effect / MTT,0.092 µM
CNc1cccc2c1nc(-c1c(F)cccc1F)n2Cc1c(F)cccc1F,-,RT-K103N,cytopathic effect / MTT,10.2 µM
O=S(=O)(O)c1cc(NS(=O)(=O)c2ccc(-c3ccc(S(=O)(=O)Nc4cc(S(=O)(=O)O)c5cccc(S(=O)(=O)O)c5c4)cc3)cc2)cc2c(S(=O)(=O)O)cccc12,IIIB,-,cytopathic effect / MTT,18 µM
N#Cc1c(N)cccc1S(=O)(=O)c1cc(Cl)cc(Cl)c1,IIIB,-,cytopathic effect,0.3 µM
CC(C)(C)c1ccc(C(=O)N/N=C/c2c(O)ccc3ccccc23)cc1,IIIB,-,cytopathic effect,5 µM
Nc1ncc(CN(CCN2CCCCC2)CC2CCCN(C3CCCC3)C2)cn1,NL4-3,-,MTT,2.6 µM
N#Cc1cccc(S(=O)(=O)c2cccc(N)c2C#N)c1,IIIB,-,cytopathic effect,5.4 µM
O=C1Nc2ccc(Cl)cc2C(c2ccccc2Cl)=NC1O,LAV,-,-,>1 µg/mL
Cc1cc2c(C(C)C)c(O)c(O)c3c(N)oc(/c1=c1/c(C)cc4c(C(C)C)c(=O)c(=O)c5c(N)oc1c45)c23,LAV-A,-,antigen,0.25 µM
Nc1nc2c(ncn2[C@H]2CC[C@@H](CO)O2)c(=O)[nH]1,LAV,-,trypan blue,7.6 µM
Cc1c(Sc2ccccc2)n(COCCO)c(=O)[nH]c1=O,IIIB,-,cytopathic effect / MTT,5.06 µM
O=C(/C=C/c1ccc(O)cc1)c1ccc(O)cc1O,-,-,cytopathic effect / MTT,>7.4 µM
O=c1[nH]cnc2c1ncn2[C@H]1CC[C@@H](CO)O1,IIIB,-,cytopathic effect,11 µM
Cc1cn([C@H]2C=C[C@@H](CO)O2)c(=O)[nH]c1=O,IIIB,-,cytopathic effect / MTT,0.27 µM
CN1CCC(=C2c3ccccc3C=Cc3ccccc32)CC1,LAV,-,-,>10 µg/mL
O=C1/C(=C/c2ccc(O)c(O)c2)Cc2ccccc21,-,-,cytopathic effect / MTT,>5.5 µM
CCNCC(O)c1cccc(O)c1,LAV,-,-,>100 µg/mL
Fc1cccc(F)c1Cn1c(-c2c(F)cccc2F)nc2c(Br)cccc21,-,RT-V108I,cytopathic effect / MTT,3.2 µM

For reference, 7 entries again:

smiles | strain | mutations | method | result
NC(=O)c1[nH]c2ccc(Cl)cc2c1S(=O)(=O)c1ccccc1 | IIIB | - | MTT | 0.002 µM
C=COC(=O)OC[C@@H]1C=C[C@H](n2cc(C)c(=O)[nH]c2=O)O1 | IIIB | - | cytopathic effect / MTT | 0.085 µM
CC(C)(CO)[C@@H](O)C(=O)NCCC(=O)NCCSSCCNC(=O)CCNC(=O)[C@H](O)C(C)(C)CO | LAV | - | - | >10 µg/mL
O=C1/C(=C/c2ccc(O)c(O)c2)Cc2ccccc21 | - | - | cytopathic effect / MTT | >5.5 µM
O=S(=O)(O)c1cc(NS(=O)(=O)c2ccc(-c3ccc(S(=O)(=O)Nc4cc(S(=O)(=O)O)c5cccc(S(=O)(=O)O)c5c4)cc3)cc2)cc2c(S(=O)(=O)O)cccc12 | IIIB | - | cytopathic effect / MTT | 18 µM
NCCCCN(Cc1nc2ccccc2[nH]1)C1CCCc2cccnc21 | NL4-3 | - | MTT | 0.026 µM
O=c1[nH]cnc2c1ncn2[C@H]1CC[C@@H](CO)O1 | IIIB | - | cytopathic effect | 11 µM